Paper PMC7180491, “Synthesis and Biological Evaluation of Novel (thio)semicarbazone-Based Benzimidazoles as Antiviral Agents against Human Respiratory Viruses” (Molecules, 2020)

Tests used:
[1] = test system: Influenza A/H1N1 (A/Ned/378/05); test: Antiviral assay against influenza A/H1N1 in MDCK cells, MTS readout; format: cell-based, human influenza virus; details: read-out: Antiviral EC50 Influenza A/H1N1
[2] = test system: Influenza A/H3N2 (A/HK/7/87); test: Antiviral assay against influenza A/H3N2 in MDCK cells, MTS readout; format: cell-based, human influenza virus; details: read-out: Antiviral EC50 Influenza A/H3N2
human coronavirus 229E = test: Antiviral assay against human coronavirus 229E in HEL cells, MTS readout; format: cell-based; details: read-out: Antiviral EC50 Coronavirus 229E
[3] = test system: Respiratory syncytial virus (RSV; strain Long); test: Antiviral assay against RSV, microscopic inspection of the viral CPE; format: cell-based; details: read-out: Anti-RSV EC50, microscopic method
[4] = test system: Respiratory syncytial virus (RSV; strain Long); details: read-out: Antiviral EC50 RSV; MTS assay, Hep-2 cells

In the case of `CCN(CC)CCn1c(Cn2nc3ccccc3n2)nc2cc(C(C)=NN)ccc21`, the pEC50 [1] was less than 4.00, the pEC50 [2] was less than 4.00 and the pEC50 (human coronavirus 229E) was less than 4.00. For the same compound, the pEC50 [3] was 5.62 and the pEC50 [4] was 5.62.

pEC50: −log10 of the molar value. Like-named read-outs stand apart in the source and are kept apart here. This is a selection: effects in other tests are not listed, and their absence says nothing.
